Test results: paper PMC4316792, “The dehydrogenase region of the NADPH oxidase component Nox2 acts as a protein disulfide isomerase (PDI) resembling PDIA3 with a role in the binding of the activator protein p67^phox” (Frontiers in Chemistry, 2015)

Experiments:
[1] = target: NADPH oxidase (macrophage membrane liposomes, cytochrome b558) (Cavia porcellus, UniProt H0UXC6)
[2] = tested on: NADPH oxidase in intact phagocytes / neutrophils; conditions: ref Le Cabec and Maridonneau-Parini, [1995]; cited from earlier work
[3] = tested on: NADPH oxidase; conditions: preincubated with the membrane fraction; reversed by reducing agents; ref Le Cabec and Maridonneau-Parini, [1995]; cited from earlier work
[4] = tested on: PDI; conditions: ref Gallina et al., [2002]; Raturi et al., [2005]; cited from earlier work
[5] = tested on: NusA-Nox2(357–570); experiment: Inhibition of PDI reductase activity of NusA-Nox2(357–570), DE-GSSG reduction; conditions: PAO 50 μM, NusA-Nox2(357–570) 2 μM, DTT 12.5 μM; one characteristic experiment; 40,306 without PAO

SMILES: O=[As]c1ccccc1 (stereo not shown)
- inhibition of oxidase activation, in words ([1]; 1.56–200 μM (Figure 14A)): significant inhibition
- inhibition of oxidase activation supported by p67phox with cysteines mutated to serines ([1]; preliminary experiments, results not shown): inhibited
- IC50 ([1]; read-out: IC50, NADPH oxidase activation, membrane liposomes preincubated with inhibitor 5 min, p67^phox(1–212) 300 nM, prenylated Rac1 Q61L 300 nM, 3 experiments (Figure 14)): 49 µM
- inhibition of oxidase activation in neutrophils [2]: inhibit oxidase activation
- inhibition of oxidase activation in vitro [3]: inhibit oxidase activation
- PDI inhibition [4]: PDI inhibitor
- Vmax of NusA-Nox2(357–570) in the presence of inhibitor (Figure 6D) [5]: 5,717 milli relative fluorescence units per min
